Anti-infective test results gathered from many reports (values: NIAID ChemDB through PubChem).

All rows: target-level tests; agent: Hepatitis C virus; protein: Nonstructural protein 5B; endpoint: IC50

An empty or dashed field is not shown. Neighbouring rows are from separate reports. Two numbers with a dash give a range or band. ICn is the concentration giving n% inhibition.

smiles,strain,method,result
CC1(c2ccc(CCC3(C4CCCC4)CC(=O)CC(=O)O3)cc2Cl)CC(=O)CC(=O)O1,-,-,<1 µM
C=CCOc1cc2c(C(=O)NC)c(-c3ccc(F)cc3)oc2cc1NCC,-,-,≤0.5 µM
C[C@@]1(O)[C@H](O)[C@@H](COP(=O)([O-])OP(=O)([O-])OP(=O)([O-])O)O[C@H]1n1cnc2c(N)nc(N)nc21,WT gt 2a,nucleotide incorporation,2.1 µM
CCn1nnnc1SC1=C(O)CC(CCc2cc(Cl)c(OC)cc2OC)(C2CCCC2)OC1=O,-,-,<1 µM
CNC(=O)c1c(-c2ccc(Br)cc2)oc2ccc(OC)cc12,-,-,≤0.5 µM
COc1nc(NCCCn2ccnc2)nc(Nc2ccc3[nH]ncc3c2)n1,-,-,0.1–1 µg/mL
O=C(O)c1ccc(N2C(=O)C(=Cc3ccc(-c4ncc(C(F)(F)F)cc4Cl)o3)SC2=S)cc1,-,-,≤1 µM
O=C1OC(CCc2ccc(O)cc2)(C2CCCC2)CC(O)=C1Sc1ccc2ccccc2c1,-,-,1–10 µM
O=C(O)CCN1C(=O)C(=Cc2ccc(-c3cc4ccc(OCc5ccccc5)cc4o3)o2)SC1=S,-,-,≤1 µM
CNC(=O)c1c(-c2ccc(F)cc2)oc2cc(N(C)S(C)(=O)=O)c(OCc3ccccc3C(=O)OC)cc12,-,-,≤0.5 µM
CNC(=O)CN1CCN(c2nc(Nc3ccc4[nH]ncc4c3)nc(OC)n2)CC1,-,-,>10 µg/mL
O=C(O)c1ccc(N2C(=O)C(=Cc3ccc(-c4cc(Cl)cc(Cl)c4)o3)SC2=S)cc1,-,-,≤1 µM
CNC(=O)CN1CCN(c2nc(Nc3ccc4cn[nH]c4c3)nc(OC)n2)CC1,-,-,>10 µg/mL
CNC(=O)c1c(-c2ccc(F)cc2)oc2cc(N3CCOCC3)c(OC(C)C)cc12,-,-,≤0.5 µM
CC(C)COc1ccc(CCC2(C3CCCC3)CC(=O)CC(=O)O2)cc1F,-,-,1–10 µM
Cc1ccc(-c2ccc(C=C3SC(=S)N(c4ccc(C(=O)O)cc4)C3=O)o2)s1,-,-,≤1 µM
COc1nc(Nc2ccc3[nH]ncc3c2)nc(NN2CCN(C)CC2)n1,-,-,1–10 µg/mL
O=C(O)C(=O)/C=C(\O)c1cccc(NS(=O)(=O)c2cc(Cl)c(Cl)cc2Cl)c1,-,-,0.63 µM
COc1ccc(Oc2cccc(CCC3(C4CCCC4)CC(O)=CC(=O)O3)c2)cc1,-,-,10–50 µM
COc1nc(NCCO)nc(Nc2ccc3cn[nH]c3c2)n1,-,-,0.1–1 µg/mL
COc1c(-c2ccc3cc(NS(C)(=O)=O)ccc3c2)cc(-n2ccc(=O)[nH]c2=O)cc1C(C)(C)C,GT 3a#1,nucleotide incorporation,5.6 µM
O=C1C=C(O)CC(CCc2cc3ccccc3o2)(C2CCCC2)O1,-,-,10–50 µM
COc1nc(Nc2ccc3[nH]ncc3c2)nc(N2CCN(C)CC2)n1,-,-,>10 µg/mL
Cc1cc(C)nc(-c2ccc(C=C3SC(=S)N(c4ccc(C(=O)O)cc4)C3=O)o2)c1,-,-,≤1 µM
CNC(=O)c1c(-c2ccc(F)cc2)oc2cc(NS(C)(=O)=O)c(-c3ccco3)cc12,-,-,≤0.5 µM
COc1ccc(CCC2(C3CCCC3)CC(=O)C(C(C)=O)C(=O)O2)c(OC)c1,-,-,10–50 µM
COc1nc(NCCc2c[nH]c3ccccc23)nc(Nc2ccc3[nH]ncc3c2)n1,-,-,>10 µg/mL

2 of the rows above, restated:

smiles,strain,method,result
O=C1C=C(O)CC(CCc2cc3ccccc3o2)(C2CCCC2)O1,-,-,10–50 µM
CC1(c2ccc(CCC3(C4CCCC4)CC(=O)CC(=O)O3)cc2Cl)CC(=O)CC(=O)O1,-,-,<1 µM